Data reported in PubChem BioAssay AID602233 (National Center for Advancing Translational Sciences (NCATS), 2012).
The list shows a part of the results, in another mix than the full data. The source made the active and inactive calls. Calls come from the whole dose curve; as a rule, active = well fitted inhibition curve with a large enough effect; inconclusive = small, poorly fitted or top-dose-only effect; inactive = no such curve, though single readings can be large or run the other way.

What follows are compounds tested against Phosphoglycerate kinase, glycosomal (Trypanosoma brucei brucei) (UniProt P07378) (assay: qHTS Assay to Find Inhibitors of Phosphoglycerate Kinase). Details: PGK/GAPDH coupled, Kinase-Glo luminescence, 60 min; activity change, negative = inhibition: at 57.5 µM (top of the series) unless noted.
Description: Several species of the Trypanosomatidae family of parasitic protozoans cause a spectrum of diseases throughout the tropical and subtropical world. Sleeping sickness, caused by two subspecies of Trypanosoma brucei, is endemic to areas of sub-Saharan Africa, while Chagas disease, a manifestation of Trypanosoma cruzi infection, is prevalent throughout Central and South America. In addition, many species of Leishmania are responsible for a range of cutaneous and visceral diseases, causing ulcers, destructive lesions and kalaazar, a lethal infection of the viscera. Collectively, these organisms infect 30 million people worldwide (~500 million live in endemic areas), and account for ~130,000 deaths annually. Given their debilitating and prevalent nature, trypanosomatid parasites impose a heavy medical, economic and social burden on entire populations, primarily in the developing world. The problem is further exacerbated by the fact that existing treatments have progressed little in the past 50 years, and current drugs show high toxicity and poor efficacy. […] Blood-stream stages of T. brucei are entirely dependent on glycolysis as a source of ATP, and the tricarboxylic acid cycle and oxidative phosphorylation are both repressed. Glycolysis in axenically cultured T. cruzi, representing the intracellular pathogenic stage, is also essential for these parasites. […] Previous studies have shown that the glycolytic enzyme, phosphoglycerate kinase (PGK), is a viable target for drugs to kill these parasites. […] NIH Molecular Libraries Probe Production Network [MLPCN] NIH Chemical Genomics Center [NCGC] MLPCN Grant: R03 MH093212 PI Name: Malcolm Walkinshaw, University of Edinburgh
3ul of substrate/PGK buffer (columns 1,2,5-48) are dispensed into Greiner white solid bottom 1536-well assay plates; columns 3-4 receive only TEA buffer as 0x PGK controls. Compounds are then transferred via Kalypsys pin tool equipped with 1536-pin array (10nl slotted pins, V&P Scientific, San Diego, CA). Following addition of compound, 1ul of GAPDH (100nM final concentration, all columns) is added to initiate the reaction (this upstream coupling enzyme is necessary for in-well production of PGK substrate, 1,3-bisphosphoglycerate (1,3-BPG), which is unstable and not commercially available). The plates are then incubated at room temperature for 60 minutes. Kinase-Glo Plus reagent is added (2ul) and plates incubated for 10 minutes, before being transferred to a ViewLux high-throughput CCD imager (PerkinElmer) wherein single end-point measurements of luminescence are acquired using a clear filter. All reagents are diluted in an assay buffer consisting of 100mM TEA (pH 7.6), 5mM MgCl2 and 0.01% Tween-20.
Note: nearly all actives have a fitted effect of over 60% in size.

Compound	activity change, negative = inhibition
COc1ccccc1OP(C)(=O)Nc1ccccc1 (stereo unspecified)	inactive: -10.4%
CP(=O)(Nc1ccccc1Br)Oc1ccccc1 (stereo unspecified)	inactive: -2.26%
CP(=S)(Nn1cnnc1)Oc1ccccc1 (stereo unspecified)	inactive: -0.0935%
CP(=O)(Nc1ccccn1)Oc1ccc(Cl)cc1 (stereo unspecified)	inactive
CCOP(C)(=S)SCC(=O)NC(C)C(=O)O (stereo unspecified)	inactive: -5.7%
O=[N+]([O-])c1cc([N+](=O)[O-])c(O)c([N+](=O)[O-])c1.c1ccc(Oc2ccncc2)cc1	inactive
CCOC(=O)c1ccc(NP(C)(=O)Oc2ccc(OC)cc2)cc1 (stereo unspecified)	inactive: 8.26%
CCc1ccc(OP(C)(=O)N2CCN(c3ccc([N+](=O)[O-])cc3)CC2)cc1 (stereo unspecified)	inactive: -1.75%
CP(=O)(NC(=O)Nc1ccccc1)Oc1ccccc1 (stereo unspecified)	inactive: -1.64%
Cc1cc(C)cc(OP(C)(=O)Nc2ccc(SC(F)(F)F)cc2)c1 (stereo unspecified)	inactive: -1.33%
CP(=O)(Nc1ccc(SC(F)(F)F)cc1)Oc1ccc(Cl)cc1 (stereo unspecified)	inactive: -4.38%
Cc1cccc(C)c1OP(C)(=O)Nc1ccc(SC(F)(F)F)cc1 (stereo unspecified)	inactive
CP(=O)(Oc1ccccc1)OC(c1ccccc1)C(F)(F)F (stereo unspecified)	inactive: -7.86%
CCN(CC)CCCOC(=O)C(O)(c1ccccc1)c1ccccc1	inactive: 1.15%
COc1ccccc1OP(C)(=O)Nc1cc(Cl)ccc1C (stereo unspecified)	inactive: -2.17%
COc1ccc(OP(C)(=O)Nc2cccc(F)c2)cc1 (stereo unspecified)	inactive
Cc1cc(C)cc(OP(C)(N)=O)c1 (stereo unspecified)	inactive: -0.793%
CCOC(=O)c1ccc(NP(C)(=O)Oc2ccccc2)cc1 (stereo unspecified)	inactive: -0.195%
COc1ccccc1OP(C)(=O)Nc1ccc(C)cc1 (stereo unspecified)	inactive: 2.11%
Cc1ccc(NP(C)(=O)Oc2ccccc2)c(C)c1 (stereo unspecified)	inactive: 0.597%
CC(C)(C)c1ccc(OP(C)(=O)Nc2ccc(SC(F)(F)F)cc2)cc1 (stereo unspecified)	inactive: -6.37%
Cc1cccc(C)c1OP(C)(N)=O (stereo unspecified)	inactive: 1.85%

Compound	activity change, negative = inhibition
O=[N+]([O-])c1ccc2c(c1)C=Nc1ccccc1O2	inactive: 0.704%
O=[N+]([O-])c1cc([N+](=O)[O-])c(Nc2cccnc2)c([N+](=O)[O-])c1	inactive: -13%
CC1=NCCc2c1[nH]c1ccccc21.O=[N+]([O-])c1cc([N+](=O)[O-])c(O)c([N+](=O)[O-])c1	inactive: -1.35%
CP(=O)(Nc1cccc(Br)c1)Oc1ccccc1 (stereo unspecified)	inactive
Cc1cc(C)cc(OP(C)(=O)Nc2ccccn2)c1 (stereo unspecified)	inactive: 9.83%
Cc1ccc(C)c(NP(C)(=O)Oc2ccccc2)c1 (stereo unspecified)	inactive: -4.25%
Cc1cc(C)cc(OP(C)(=O)Nc2ccc(C)cc2C)c1 (stereo unspecified)	inactive: -1.42%
CCOC(=O)c1ccc(NP(C)(=O)Oc2cc(C)cc(C)c2)cc1 (stereo unspecified)	inactive: -0.428%
COc1ccccc1OP(C)(=O)Nc1cccc(Br)c1 (stereo unspecified)	inactive: -5.56%
Cc1nc2ccc3ccccc3c2s1.O=[N+]([O-])c1cc([N+](=O)[O-])c(O)c([N+](=O)[O-])c1	inactive: 0.623%
O=[N+]([O-])c1cc([N+](=O)[O-])c(-c2cnn(-c3ccccc3)c2)c([N+](=O)[O-])c1	inactive: 10.8%
O=[N+]([O-])c1cc([N+](=O)[O-])c(-n2nnc3ccccc32)c([N+](=O)[O-])c1	inactive: -4.22%
CP(=O)(Nc1ccc(SC(F)(F)F)cc1)Oc1ccccc1 (stereo unspecified)	inactive: -3.45%
CCCOc1ccc(NP(C)(=O)Oc2ccc(Cl)cc2)cc1 (stereo unspecified)	inactive: -2.14%
CN1CCCCC1COC(=O)C1(O)c2ccccc2CCc2ccccc21 (stereo unspecified)	inactive: 3.22%
COc1ccccc1OP(C)(=O)Nc1c(C)cccc1C (stereo unspecified)	inactive: -13.3%
O=[N+]([O-])c1cc([N+](=O)[O-])c(Nc2nnnn2CCO)c([N+](=O)[O-])c1	inactive: -9.61%
CC1=C2N=C(C=C3N=C(C(C)=C4[N-][C@@](C)([C@@H]5N=C1[C@](C)(CCC(=O)NC[C@@H](C)OP(=O)([O-])O[C@H]1[C@@H](O)[C@@H](n6cnc7cc(C)c(C)cc76)O[C@@H]1CO)[C@H]5CC(N)=O)[C@@](C)(CC(N)=O)[C@@H]4CCC(N)=O)[C@@](C)(CC(N)=O)[C@@H]3CCC(N)=O)C(C)(C)[C@@H]2CCC(N)=O.[C-]#N.[Co+3]	inactive: -16.6%
Cc1c(C(c2ccc3c(c2)OCO3)c2c(C)n(C)n(-c3ccccc3)c2=O)c(=O)n(-c2ccccc2)n1C.O=[N+]([O-])c1cc([N+](=O)[O-])c(O)c([N+](=O)[O-])c1	inactive: -3.57%
Cc1cc(-c2cccc3ccccc23)c(C)cn1.O=[N+]([O-])c1cc([N+](=O)[O-])c(O)c([N+](=O)[O-])c1	inactive
O=[N+]([O-])c1ccc(OP2(=O)COCCO2)cc1 (stereo unspecified)	inactive: -8.39%
COc1ccc(NP(C)(=O)Oc2ccccc2OC)cc1 (stereo unspecified)	inactive: -2.96%

Compound	activity change, negative = inhibition
CN(C)CCOC(=O)C(O)(c1ccccc1)C1CCCCC1 (stereo unspecified)	inactive: -2.44%
COc1ccc(OP(C)(=O)Nc2cccc(Br)c2)cc1 (stereo unspecified)	inactive: -5.5%
Cc1ccccc1NP(C)(=O)Nc1ccccc1C	inactive: 1.76%
CP(=O)(Nc1ccc2c(c1)OCCO2)Oc1ccccc1 (stereo unspecified)	inactive
CCOP(C)(=S)SCC(=O)NC(C)(CC)C(=O)O (stereo unspecified)	inactive
CP(=O)(Nc1ccc(SC(F)(F)F)cc1)Oc1ccc(F)cc1 (stereo unspecified)	inactive: -0.606%
O=C(OCCN1CCN(CCOCc2ccccc2)CC1)C(O)(c1ccccc1)c1ccccc1	inactive: 5.75%
CC(C)c1ccc(OP(C)(=O)Nc2ccc(SC(F)(F)F)cc2)cc1 (stereo unspecified)	inactive: 6.77%
CP(=O)(Nc1ccccc1F)Oc1ccccc1 (stereo unspecified)	inactive: -3.86%
CCCCCOc1ccc(NP(C)(=O)Oc2ccc(Cl)cc2Cl)cc1 (stereo unspecified)	inactive: 3.86%
CP(=O)(Nc1ccccc1)Oc1ccc(F)cc1 (stereo unspecified)	inactive: -2.5%
CCN(CC)CCCOC(=O)C(O)(c1ccccc1)C1CCCCC1 (stereo unspecified)	inactive: 0.125%
Cc1c([N+](=O)[O-])cc([N+](=O)[O-])c(Br)c1[N+](=O)[O-]	inactive
COc1ccc(OP(C)(=O)Nc2ccc(SC(F)(F)F)cc2)cc1 (stereo unspecified)	inactive: 2.26%
CCOC(=O)c1ccc(NP(C)(=O)Oc2ccc(F)cc2)cc1 (stereo unspecified)	inactive: -4.16%
CP(=O)(OCCOc1ccccc1)OCCOc1ccccc1	inactive: -7.92%
CCCCCCCCCCCCCCCC1C[N+](C)(C)CCOP(C)(=O)O1 (stereo unspecified)	inactive: -8.23%
CP(=O)(Nc1ccc(Cl)cc1Cl)Oc1ccccc1 (stereo unspecified)	inactive: 2.24%
COc1ccc(OP(C)(=O)Nc2ccccc2Br)cc1 (stereo unspecified)	inactive: 5.58%
COc1ccccc1OP(C)(=O)Nc1ccc(C)c(C)c1 (stereo unspecified)	inactive
Cc1cc(C)cc(OP(C)(=O)Nc2cccc(C(F)(F)F)c2)c1 (stereo unspecified)	inactive: -6.21%
CCc1ccc(OP(C)(=O)O)cc1	inactive: -8.25%

Compound	activity change, negative = inhibition
CP(=O)(Nc1ccccn1)Oc1ccccc1 (stereo unspecified)	inactive: -2.39%
COc1ccccc1OP(C)(=O)Nc1ccc(C)cc1C (stereo unspecified)	inactive: 1.58%
O=[N+]([O-])c1cc([N+](=O)[O-])c(Nc2ccccn2)c([N+](=O)[O-])c1	inactive: -5.62%
Cc1c(NP(C)(=O)Oc2ccc(C(C)C)cc2)c(=O)n(-c2ccccc2)n1C (stereo unspecified)	inactive: 4.42%
CN(C)CCOC(=O)C(O)(c1ccccc1)C1CCCC1 (stereo unspecified)	inactive: -8.05%
COc1ccc(OP(C)(=O)Nc2ccccn2)cc1 (stereo unspecified)	inactive: -7.51% [at 11.5 µM]
COc1ccccc1OP(C)(=O)Nc1ccc(Br)cc1 (stereo unspecified)	inactive: -7.58%
CN(C)C(=O)c1c([N+](=O)[O-])cc([N+](=O)[O-])cc1[N+](=O)[O-]	inactive: -10.8%
CP(=O)(Nc1ccc(Cl)cc1)Oc1ccc(F)cc1 (stereo unspecified)	inactive: 0.946%
CC(C)(C)c1ccc(OP(C)(=O)O)cc1	inactive: -6.96%
COc1ccccc1OP(C)(=O)Nc1ccccc1Br (stereo unspecified)	inactive: -1.85%
CP(=O)(Oc1ccccc1)N1CCOC1=O (stereo unspecified)	inactive: -3.98%
CCc1ccc(OP(C)(=O)Nc2cccnc2)cc1 (stereo unspecified)	inactive
COc1ccccc1OP(C)(=O)Nc1c(C)n(C)n(-c2ccccc2)c1=O (stereo unspecified)	inactive: -2.65%
O=C(OCCCN1CCCC1)C(O)(c1ccccc1)C1CCCCC1 (stereo unspecified)	inactive: -3.11%
CCN(CC)CC(O)COC(=O)C(O)(c1ccccc1)C1CCCCC1 (stereo unspecified)	inactive: -7.14%
COc1ccc(OP(C)(=O)Nc2ccc(Br)cc2)cc1 (stereo unspecified)	inactive: -1.26%
CP(=O)(OC12CC3CC(CC(C3)C1)C2)OC12CC3CC(CC(C3)C1)C2	inactive: -2.99%
CCOC(=O)c1ccc(NP(C)(=O)Oc2ccc(Cl)cc2)cc1 (stereo unspecified)	inactive: -2.18%
Nc1ccc2c(ccc3cccnc32)n1.O=[N+]([O-])c1cc([N+](=O)[O-])c(O)c([N+](=O)[O-])c1	inactive: -6.67%
